Results as given in BindingDB's records for 40279549.

Molecular target: Fucose-binding lectin PA-IIL (Pseudomonas aeruginosa (strain ATCC 15692 / DSM 22644 / CIP 104116 / JCM 14847 / LMG 12228 / 1C / PRS 101 / PAO1), UniProt Q9HYN5)

C[C@@H]1O[C@H](CNC(=O)C2CCCN2)[C@@H](O)[C@H](O)[C@@H]1O (stereo partly specified)
IC50: 1110 nM
